Results of unrelated studies side by side (data: NIAID ChemDB).

Common to all: growth or infection tests; agent: Candida albicans

Blank or dashed fields: not listed here. A number after MIC or MFC names an inhibition level or a share of isolates. ECn is the concentration giving n% inhibition of infection, replication or growth. Neighbouring rows are from separate reports.

smiles	read by	read-out	strain or isolate	conditions	result
CCC(C)CC(C)CCCCCCCCC(=O)N[C@H]1C[C@@H](O)[C@H](NCCN)NC(=O)[C@@H]2[C@@H](O)CCN2C(=O)[C@H]([C@H](O)CCN)NC(=O)[C@H]([C@H](O)[C@@H](O)c2ccc(O)cc2)NC(=O)[C@@H]2C[C@@H](O)CN2C(=O)[C@H]([C@@H](C)O)NC1=O	broth dilution	EC90	15 isolates	pH 5	0.06 µg/mL
CCCCCOc1ccc(-c2ccc(-c3ccc(C(=O)N[C@H]4CCCNC(=O)C5C[C@H](NC(=O)CCc6ccccc6)CN5C(=O)C(C(C)O)NC(=O)C(CCc5ccc(O)cc5)NC(=O)C5C[C@@H](O)CN5C(=O)C(C(C)O)NC4=O)cc3)cc2)cc1		MIC	ATCC CCH442		25 µg/mL
Fc1ccc(C(c2ccc3ccccc3c2)n2ccnc2)cc1		MIC50	23 strains		8 µg/mL
CC1CCC2(CC1)N=C(N)N=C(N)N2OCCCCCCCCO		MIC			240 µg/mL
CCC(C)CC(C)CCCCCCCCC(=O)N[C@H]1C[C@@H](O)[C@H](NCCN)NC(=O)[C@@H]2[C@@H](O)CCN2C(=O)[C@H]([C@H](O)CCN)NC(=O)[C@H]([C@H](O)[C@@H](O)c2ccc(O)cc2)NC(=O)[C@@H]2C[C@@H](O)CN2C(=O)[C@H]([C@@H](C)O)NC1=O		MIC90	50 isolates		0.4 µg/mL
CC(O)C1NC(=O)C(CCc2ccc(O)cc2)NC(=O)C2C[C@@H](O)CN2C(=O)C(C(C)O)NC(=O)[C@@H](NC(=O)c2ccc(N(C)C)cc2)CCCNC(=O)C2C[C@H](N)CN2C1=O		MIC	ATCC 62376		>100 µg/mL
CCC(C)n1ncn(-c2ccc(N3CCN(c4ccc(OC[C@H]5CO[C@](Cn6cncn6)(c6ccc(Cl)cc6Cl)O5)cc4)CC3)cc2)c1=O		MIC50	10 isolates azole-resistant		0.4 µg/mL
Clc1ccc(C(c2ccc3ccccc3c2)n2ccnc2)cc1		MIC50	23 strains		8 µg/mL
Cc1ccc(C(C)C)cc1O		MIC	M1		0.16 µg/mL
OC(CN1CCN(c2ccc(OCc3ccncc3)cc2)CC1)(Cn1cncn1)c1ccc(F)cc1F		MIC80	ATCC 76615		≤0.063 µg/mL
Cc1ccc(N=Nc2ccc(O)c(C[N+](C)(C)COC3CCCCC3)c2)cc1		MIC			148 µM
COc1ccc(C(c2ccc3ccccc3c2)n2ccnc2)cc1		MIC90	23 strains		16 µg/mL
CC[C@@H]([C@H](C)O)n1ncn(-c2ccc(N3CCN(c4ccc(OC[C@@H]5CO[C@@](Cn6cncn6)(c6ccc(F)cc6F)C5)cc4)CC3)cc2)c1=O	broth dilution	MIC	15 isolates	pH 5	0.03 µg/mL
CC1(C)N=C(N)N=C(N)N1OCc1cccc(Oc2cccc(CON3C(N)=NC(N)=NC3(C)C)c2)c1		MIC			60 µg/mL
CCCCOC[N+](C)(C)Cc1cc(N=Nc2ccc(Cl)cc2)ccc1O		MBC			608 µM
CCC(C)n1ncn(-c2ccc(N3CCN(c4ccc(OC[C@H]5CO[C@](Cn6cncn6)(c6ccc(Cl)cc6Cl)O5)cc4)CC3)cc2)c1=O		MFC99	A28200		>16 µg/mL
C[C@@H](SC1COC(/C=C/C=C/c2ccc(C#N)cc2F)OC1)[C@](O)(Cn1cncn1)c1ccc(F)cc1F		MIC	CAL-0076		8 µg/mL
COC(=O)[C@H]1[C@@H]2C[C@@H](O[C@@H]3O[C@H](C)[C@@H](O)[C@H](N)[C@@H]3O)/C=C/C=C/C=C/C=C/C=C/C=C/C=C/[C@H](C)[C@@H](O)[C@H](C)[C@H](C)OC(=O)C[C@H](O)C[C@H](O)[C@@H](O)CC[C@H](O)C[C@H](O)C[C@](O)(C[C@@H]1O)O2	broth dilution	MIC	15 isolates	pH 6	1 µg/mL
CCCCCOc1ccc(-c2ccc(-c3ccc(C(=O)N[C@H]4CCCNC(=O)[C@@H]5C[C@H](N)CN5C(=O)[C@H](CCC(=O)O)NC(=O)C(CCc5ccc(O)cc5)NC(=O)[C@@H]5C[C@@H](O)CN5C(=O)[C@H]([C@@H](C)O)NC4=O)cc3)cc2)cc1		MIC	ATCC 62376		0.2 µg/mL
c1ccc(-c2ccc(C(c3cccc4ccccc34)n3ccnc3)cc2)cc1		Mean MIC	23 strains		48.3 µg/mL
Cc1ccc(N=Nc2ccc(O)c(C[N+](C)(C)COCCCC3CCCCC3)c2)cc1		MBC			272 µM
COc1ccc(N2C(=O)CC(C)C2=O)cc1	broth dilution / turbidity	MIC	ATCC 10231		250 µg/mL
Cc1ccc(C(c2cccc3ccccc23)n2ccnc2)cc1		MIC90	23 strains		64 µg/mL
CC1CC(=O)N(c2ccccc2)C1=O	broth dilution / turbidity	MIC	ATCC 10231		125 µg/mL
CC1N=C(N)N=C(N)N1OCc1ccc(Cl)c(Cl)c1		MIC			>250 µg/mL
CC1CC(=O)N(c2ccc(Br)cc2)C1=O	broth dilution / turbidity	MIC	ATCC 10231		250 µg/mL
Clc1ccc(C(c2cccc3ccccc23)n2ccnc2)s1		Mean MIC	23 strains		3.46 µg/mL
Clc1ccc(COC(Cn2ccnc2)c2ccc(Cl)cc2Cl)c(Cl)c1	broth dilution	MIC	10 isolates	pH 4	0.25 µg/mL
CCCCCCCCOc1ccc(N2CCN(c3ccc(C(=O)N[C@H]4CCCNC(=O)C5C[C@H](N)CN5C(=O)C(C(C)O)NC(=O)C(CCc5ccc(O)cc5)NC(=O)C5C[C@@H](O)CN5C(=O)C(C(C)O)NC4=O)cc3)CC2)cc1		MIC	ATCC 62376		0.39 µg/mL
Cc1ccc(N=Nc2ccc(O)c(C[N+](C)(C)COC3CCC(C)CC3)c2)cc1		MIC			72 µM
CCCCCCCCCCON1C(N)=NC(N)=NC12CCC(C)CC2		MIC			15 µg/mL
Cc1ccc(N2C(=O)C[C@@H](C)C2=O)cc1	broth dilution / turbidity	MIC	ATCC 10231		62.5 µg/mL
COc1ccc(C(c2cccc3ccccc23)n2ccnc2)cc1		MIC90	23 strains		32 µg/mL

A second listing of 3 rows from above:

COC(=O)[C@H]1[C@@H]2C[C@@H](O[C@@H]3O[C@H](C)[C@@H](O)[C@H](N)[C@@H]3O)/C=C/C=C/C=C/C=C/C=C/C=C/C=C/[C@H](C)[C@@H](O)[C@H](C)[C@H](C)OC(=O)C[C@H](O)C[C@H](O)[C@@H](O)CC[C@H](O)C[C@H](O)C[C@](O)(C[C@@H]1O)O2 ; read by: broth dilution ; read-out: MIC ; strain or isolate: 15 isolates ; conditions: pH 6 ; result: 1 µg/mL
Cc1ccc(N=Nc2ccc(O)c(C[N+](C)(C)COC3CCCCC3)c2)cc1 ; read-out: MIC ; result: 148 µM
CC(O)C1NC(=O)C(CCc2ccc(O)cc2)NC(=O)C2C[C@@H](O)CN2C(=O)C(C(C)O)NC(=O)[C@@H](NC(=O)c2ccc(N(C)C)cc2)CCCNC(=O)C2C[C@H](N)CN2C1=O ; read-out: MIC ; strain or isolate: ATCC 62376 ; result: >100 µg/mL